The record followed here is paper PMC8470104, “Anti-Metatype Antibody Screening, Sandwich Immunoassay Development, and Structural Insights for β-Lactams Based on Penicillin Binding Protein” (Molecules, 2021).

The series concerns PBP2x*. As to conditions: in milk.

Molecules are shown by their SMILES.

With `CO/N=C(\C(=O)N[C@@H]1C(=O)N2C(C(=O)O)=C(CSc3nc(=O)c(=O)[nH]n3C)CS[C@H]12)c1csc(N)n1` [CTRX, Cefatriaxone], the “LOD of sandwich ELISA” value is 1.65 ng/mL and the “working range of sandwich ELISA” value lay in the range of 1 to 1000 ng/mL.
